PMC4694137
For at least one entry, the source does not settle the construct or the ends of the probe.

Tested on: AgaR2 (Streptococcus suis 05ZYH33)
Assay: EMSA
Conditions: 0.5-5 pmol protein, 0.2 pmol probe, 20 uL; Roche DIG gel-shift binding buffer (composition and pH not stated), 20 min at room temperature, 0.2 pmol DIG-labeled probe, 0.5-5 pmol protein in 15-20 uL, native 7% PAGE; recombinant protein; protein details: N-terminal 6xHis (pET28a); label: DIG-ddUTP (3', terminal transferase)

Sequence	binding result
AACACTTCTTTGTGGTTATGTCCAGTACTTTTTAAA (double strand) [SSU05_0448/9 site2 probe]	binds
ACTATTGGTTTGTGGTTATAACCAGTTAGGGTAAAG (double strand) [EF1809 site2 probe]	binds
ATATTTGGTATATGGTTATAACCAGTTTGATAAGTA (double strand) [SSU05_1259 probe (agaA)]	binds
TATAAGAAAAACTGGTTATAACCAGAAATCCCGGGG (double strand) [SSU05_0195 probe (agaS)]	binds
